A mixed list of measured activities; the numbers were collected in NIAID ChemDB.

Common to all: growth or infection tests; agent: Hepatitis C virus; endpoint: EC50

Rows are shuffled and stem from different studies. ECn: concentration that inhibits the pathogen or its effect by n%. a–b is a range or a potency band. An empty or dashed field is not shown.

structure	cell line	setting	strain or isolate	mutations	method	result
COc1c(-c2ccc3cc(NS(C)(=O)=O)ccc3c2)cc(-n2ccc(=O)[nH]c2=O)cc1C(C)(C)C	-	0% human plasma	genotype 1b Con1	-	luciferase	0.0018 µM
CNC(=O)COC(=O)N1c2cccc(O)c2NC2=C(C(=O)CC(C)(C)C2)C1c1ccc(OCc2ccccc2)cc1Cl	-	-	1b	-	luciferase / reporter gene / replicon	5.8 µM
O=C(N[C@@H](C(=O)N1CCC[C@H]1c1ncc(-c2ccc(-c3ccc(-c4cnc([C@@H]5CCCN5C(=O)[C@H](NC(=O)C5CC5)c5ccccc5)s4)cc3)cc2)s1)c1ccccc1)C1CC1	Huh7.5	-	genotype 2a	-	luciferase / reporter gene	0.00025 µM
S=C(Nc1ccc(N2CCOCC2)cc1)Nc1ccc2c(c1)Cc1cc(Br)ccc1-2	Ava5-EG(delta4AB)SEAP	-	-	-	reporter gene / fluorescence	0.001–1 µM
CC1(C)CC(=O)C2=C(C1)Nc1c(O)cccc1N(C(=O)c1cnc3ccccc3n1)C2c1ccc(OCc2ccccc2)cc1F	-	-	1b	-	luciferase / reporter gene / replicon	1.23 µM
NC(=S)Nc1cccc(OCCCOc2ccccc2)c1	Ava5-EG(delta4AB)SEAP	-	-	-	reporter gene / fluorescence	0.001–1 µM
CCCCCCCCOc1ccc(N(C(=O)c2cc(C)on2)c2nc(-c3ccc(Cl)s3)cs2)cc1	-	-	-	-	-	<1 µM
CC(=O)N1c2cccc(O)c2NC2=C(C(=O)CC(C)(C)C2)C1c1ccc(OCc2ccccc2)cc1C	-	-	1b	-	luciferase / reporter gene / replicon	2.88 µM
S=C(NCCc1ccccc1)Nc1ccc2c(c1)Cc1cc(Br)ccc1-2	Ava5-EG(delta4AB)SEAP	-	-	-	reporter gene / fluorescence	0.001–1 µM
CCCCCOc1ccc(N(C(N)=O)c2nc(-c3ccc(F)cc3F)cs2)cc1C(F)(F)F	-	-	-	-	-	<1 µM
CCCCN1CCN(C(=S)Nc2cccc(OCCCCCc3ccccc3)c2)C1=S	Ava5-EG(delta4AB)SEAP	-	-	-	reporter gene / fluorescence	0.001–1 µM
CC(=O)c1ccc(C(=O)N2c3cccc(O)c3NC3=C(C(=O)CC(C)(C)C3)[C@@H]2c2ccc(OCc3ccccc3)cc2F)nc1	-	-	1b	-	luciferase / reporter gene / replicon	0.44 µM
CCCCCOc1ccc(N(CC(=O)N(CC)CC)c2nc(-c3cccnc3)cs2)cc1C(F)(F)F	-	-	-	-	-	>10 µM
NC(=S)Nc1cccc(OCCCCCOc2ccc(C(=O)O)cc2)c1	Ava5-EG(delta4AB)SEAP	-	-	-	reporter gene / fluorescence	0.001–1 µM
CCCCCOc1ccc(N(C(=O)C(=O)OC)c2nc(-c3ccc(F)cc3)cs2)cc1F	-	-	-	-	-	<1 µM
COC(=O)N[C@H](C(=O)N1CCC[C@H]1c1ncc(-c2ccc(-c3ccc(-c4cnc([C@@H]5CCCN5C(=O)[C@@H](NC(=O)OC)C(C)C)[nH]4)cc3)cc2)[nH]1)C(C)C	Lunet	-	1a	Q30K	luciferase	0.19 µM
CCCCCOc1ccc(N(C)c2nc(-c3cccnc3)cs2)cc1C(F)(F)F	-	-	-	-	-	<1 µM
CC1(C)CC(=O)C2=C(C1)Nc1c(O)cccc1NC2c1cccnc1	-	-	1b	-	luciferase / reporter gene / replicon	>100 µM
NC(=S)Nc1cccc(OCCCOc2ccccc2-c2ccccc2)c1	Ava5-EG(delta4AB)SEAP	-	-	-	reporter gene / fluorescence	0.001–1 µM
CC1(C)CC(=O)C2=C(C1)Nc1c(O)cccc1N(C(=O)c1nccnc1N)[C@H]2c1ccc(OCc2ccccc2)cc1F	-	-	1b	-	luciferase / reporter gene / replicon	0.84 µM
CCCCCCCCCc1ccc(N(C(=O)OCOC(=O)C(N)C(C)C)c2nc(-c3cccnc3)c(F)s2)cc1C(F)(F)F	-	-	-	-	-	<1 µM
CC1(C)CC(=O)C2=C(C1)Nc1c(O)cccc1N(C(=O)CCC(=O)Nc1ccc(S(N)(=O)=O)cc1)C2c1ccc(OCc2ccccc2)cc1Cl	-	-	1b	-	luciferase / reporter gene / replicon	55.33 µM
CCCCCOc1ccc(N(C(C)=O)c2nc(-c3cccnc3)cs2)cc1C(F)(F)F	-	-	-	-	-	<1 µM

For reference, 2 entries again:

| structure | cell line | setting | strain or isolate | mutations | method | result |
|---|---|---|---|---|---|---|
| CC(=O)c1ccc(C(=O)N2c3cccc(O)c3NC3=C(C(=O)CC(C)(C)C3)[C@@H]2c2ccc(OCc3ccccc3)cc2F)nc1 | - | - | 1b | - | luciferase / reporter gene / replicon | 0.44 µM |
| NC(=S)Nc1cccc(OCCCOc2ccccc2-c2ccccc2)c1 | Ava5-EG(delta4AB)SEAP | - | - | - | reporter gene / fluorescence | 0.001–1 µM |